Laboratory results: article PMC12486822

Tested on: E. coli DH10B carrying pTU689 (PenI)
Test: Broth microdilution MIC, isogenic E. coli producing PenI
Details: relative to vector control

SMILES | increase of MIC by expression of wild-type blaPenI [fold]
CO/N=C(\C(=O)N[C@@H]1C(=O)N2C(C(=O)[O-])=C(C[N+]3(C)CCCC3)CS[C@H]12)c1csc(N)n1 | > 100
CC(C)(O/N=C(\C(=O)N[C@@H]1C(=O)N2C(C(=O)[O-])=C(C[n+]3ccccc3)CS[C@H]12)c1csc(N)n1)C(=O)O | > 100
